Construct, isoform or probe ends are uncertain for at least one entry. For part of these data: Negatives hold for the conditions tested. For part of these data: Protein sequences can lack the tags named with them.

Data set [1] concerns the target PhuS H212R (Pseudomonas aeruginosa PAO1) (UniProt O68880). Briefly: fluorescence anisotropy. Conditions: holo-PhuS H212R titrated with apo-HemO, 5:1 HemO needed; FA: 20 mM Tris-HCl pH 8.0, 100 mM NaCl, 0.05 mg/ml BSA, 10 nM DNA (Fur: 10 mM bis-Tris borate pH 7.5, 40 mM KCl, 0.1 mM MnSO4, 0.1 mg/ml BSA, 10% glycerol); recombinant protein; label: 5'-6FAM.
Data set [2] has as its system HemO (Pseudomonas aeruginosa). In words: EMSA. As to conditions: apo-HemO; EMSA: 100 mM Tris pH 8.0, 500 mM NaCl, 10% glycerol, 10 ng/ml salmon sperm DNA, 37 C, 30 pM DNA; recombinant protein; label: 5'-biotin.
Data set [3] addresses T1, PhuS (Pseudomonas aeruginosa PAO1) (UniProt O68880).
T1 sequence (looked up, limits assumed): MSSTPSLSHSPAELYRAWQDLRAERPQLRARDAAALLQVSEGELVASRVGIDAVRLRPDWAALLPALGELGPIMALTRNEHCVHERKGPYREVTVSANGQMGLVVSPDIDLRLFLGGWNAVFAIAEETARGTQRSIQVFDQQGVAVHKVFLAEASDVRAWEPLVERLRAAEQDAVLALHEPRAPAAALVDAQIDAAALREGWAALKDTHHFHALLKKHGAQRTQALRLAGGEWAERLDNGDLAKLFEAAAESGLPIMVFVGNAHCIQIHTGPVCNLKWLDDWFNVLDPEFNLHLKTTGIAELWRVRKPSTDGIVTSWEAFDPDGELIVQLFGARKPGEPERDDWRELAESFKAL
In words: fluorescence anisotropy. As to conditions: apo-PhuS; FA: 20 mM Tris-HCl pH 8.0, 100 mM NaCl, 0.05 mg/ml BSA, 10 nM DNA (Fur: 10 mM bis-Tris borate pH 7.5, 40 mM KCl, 0.1 mM MnSO4, 0.1 mg/ml BSA, 10% glycerol); recombinant protein; label: 5'-6FAM. A general note: In fluorescence polarisation assays a small probe gives low polarisation when free and higher when bound to something large.

With “AGCAGAAAAGTTTGGCGAAAGCGTTTGACATGGAAATGAGAATCATTATT (double strand) [prrF1-50 (FAM)]”, the binding result in data set [1] is given as “binds”. For the sequence “AGCAGAAAAGTTTGGCGAAAGCGTTTGACATGGAAATGAGAATCATTATT (double strand) [prrF1-50 (biotin)]”, the binding result in data set [2] is listed as “no binding”. Consider “GCCTGCGATTCGGCCGGAGACGACCGTTCATCGGCTGGCGATGGAATGAA (double strand) [prrF2-50 (AlgR)]”, for which, in data set [3], the binding result is “no binding”.

Values taken from publication PMC7948967, “The heme-binding protein PhuS transcriptionally regulates the Pseudomonas aeruginosa tandem sRNA prrF1,F2 locus”.
